Measurements published in paper PMC3444823.

What was measured:
Experiment in all cases: ELISA
[1] = target: single-chain fusion protein of CD4i antibody domain m36.4 with gp120MS (human | HIV-1 (clade A isolate))
[2] = target: single-chain fusion protein of CD4i antibody domain m36.4 with gp120SC (human | HIV-1 (clade B isolate))
[3] = target: single-chain fusion protein of CD4i antibody domain m36.4 with gp140SC (human | HIV-1 (clade B isolate))

## Fc-fusion protein of sCD4 (from UniProt P01730) (Fc fusion)
[1]
  fold better binding than gp120MS: 3 fold
[2]
  EC50: 2 nM
[3]
  fold better binding than gp140SC: 3 fold
